Share of PSTVd loop 15 variants by leaf site

Reference: Wu et al. 2024, doi:10.1371/journal.ppat.1012142.

PSTVd intermediate strain, loop 15: wild type GGAAACCGCUACUAC, pool pattern GGAAACCGNNNNNNC; upper and lower strand joined, each 5' to 3', the first 7 letters being the upper strand, closing pairs included.

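A pool of all variants was put on leaves of three Nicotiana benthamiana plants. Samples came from the inoculated region at 5 days, the leaf margin at 10 and upper systemic leaves at 12.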

Numbers give reads per thousand; 0 = not seen among the reads, higher = more abundant. Each value is the mean of three plants. "Pool" is the share in the plasmid pool used as inoculum, on the same scale. The inoculated region was read from the minus strand, the other sites from the plus strand. Samples held 43,870 to 66,106 reads, so the smallest values rest on one or two reads. The authors trace changes outside the varied positions to PCR and sequencing errors or to mutation in the plant; presence does not show that a variant is infectious alone. Wild type was 33.9 per thousand in the pool and the most common sequence in every sample (inoculated region 202, 200, 159; leaf margin 724, 746, 710; systemic leaves 856, 883, 880).

- GGAAACCGAAUGACC (pool 0.176): inoculated region 0.106; leaf margin 0; systemic leaves 0
- GGAAACCGACAGUAC (pool 0.208): inoculated region 0.331; leaf margin 0.111; systemic leaves 0.00537
- GGAAACCGACGAUAC (pool 0.208): inoculated region 0.269; leaf margin 0.138; systemic leaves 0.0616
- GGAAACCGACUCCAC (pool 0.288): inoculated region 0.113; leaf margin 0.00539; systemic leaves 0.0107
- GGAAACCGAGCGGGC (pool 0.224): inoculated region 0.0795; leaf margin 0; systemic leaves 0
- GGAAACCGAGUCAAC (pool 0.320): inoculated region 0.151; leaf margin 0; systemic leaves 0
- GGAAACCGAUAAUCC (pool 0.112): inoculated region 0.384; leaf margin 0.0549; systemic leaves 0.0764
- GGAAACCGAUCACAC (pool 0.224): inoculated region 0.0867; leaf margin 0; systemic leaves 0
- GGAAACCGAUCAGGC (pool 0.256): inoculated region 0.0505; leaf margin 0.00668; systemic leaves 0.00537
- GGAAACCGCAAAGGC (pool 0.144): inoculated region 0.113; leaf margin 0; systemic leaves 0.00537
- GGAAACCGCACACUC (pool 0.256): inoculated region 0.0805; leaf margin 0.0121; systemic leaves 0
- GGAAACCGCACAGGC (pool 0.240): inoculated region 0.120; leaf margin 0.0134; systemic leaves 0
- GGAAACCGCACAUCC (pool 0.320): inoculated region 0.0721; leaf margin 0; systemic leaves 0
- GGAAACCGCACCCUC (pool 0.128): inoculated region 0.0966; leaf margin 0; systemic leaves 0
- GGAAACCGCAGGUUC (pool 0.112): inoculated region 0.353; leaf margin 0.0928; systemic leaves 0.0594
- GGAAACCGCAUGCGC (pool 0.176): inoculated region 0.0851; leaf margin 0; systemic leaves 0
- GGAAACCGCCAAAAC (pool 0.224): inoculated region 0.326; leaf margin 0.114; systemic leaves 0.0644
- GGAAACCGCCCCUUC (pool 0.176): inoculated region 0.315; leaf margin 0.140; systemic leaves 0.00537
- GGAAACCGCCUCCCC (pool 0.128): inoculated region 0.0985; leaf margin 0.00539; systemic leaves 0
- GGAAACCGCUCUCAC (pool 0.272): inoculated region 0.148; leaf margin 0.00668; systemic leaves 0
- GGAAACCGCUGAUCC (pool 0.432): inoculated region 0.107; leaf margin 0.0262; systemic leaves 0
- GGAAACCGCUUGGGC (pool 0.320): inoculated region 0.134; leaf margin 0.00668; systemic leaves 0
- GGAAACCGGAGCUUC (pool 0.256): inoculated region 0.124; leaf margin 0; systemic leaves 0
- GGAAACCGGAUCCUC (pool 0.208): inoculated region 0.110; leaf margin 0.00742; systemic leaves 0
- GGAAACCGGAUCUAC (pool 0.240): inoculated region 0.130; leaf margin 0.0187; systemic leaves 0.00537
- GGAAACCGGCAGGAC (pool 0.272): inoculated region 0.351; leaf margin 0.0805; systemic leaves 0.0268
- GGAAACCGGCAUGUC (pool 0.176): inoculated region 0.119; leaf margin 0; systemic leaves 0
- GGAAACCGGCCAGCC (pool 0.112): inoculated region 0.0611; leaf margin 0.00742; systemic leaves 0
- GGAAACCGGCGCACC (pool 0.256): inoculated region 0.0625; leaf margin 0.00668; systemic leaves 0
- GGAAACCGGGCGGGC (pool 0.160): inoculated region 0.0668; leaf margin 0.00668; systemic leaves 0
- GGAAACCGGUGAUCC (pool 0.208): inoculated region 0.0849; leaf margin 0.0195; systemic leaves 0
- GGAAACCGUAGGCGC (pool 0.208): inoculated region 0.0733; leaf margin 0.0121; systemic leaves 0
- GGAAACCGUAUCACC (pool 0.240): inoculated region 0.0931; leaf margin 0; systemic leaves 0.00537
- GGAAACCGUCAAGCC (pool 0.176): inoculated region 0.111; leaf margin 0.00668; systemic leaves 0.00537
- GGAAACCGUCCCGAC (pool 0.304): inoculated region 0.137; leaf margin 0.0187; systemic leaves 0
- GGAAACCGUGAAGUC (pool 0.368): inoculated region 0.135; leaf margin 0.00539; systemic leaves 0
- GGAAACCGUGAGAGC (pool 0.128): inoculated region 0.299; leaf margin 0.109; systemic leaves 0.0215
- GGAAACCGUGCGCUC (pool 0.176): inoculated region 0.209; leaf margin 0.0121; systemic leaves 0
- GGAAACCGUUAGGCC (pool 0.144): inoculated region 0.357; leaf margin 0.105; systemic leaves 0.0429
- GGAAACCGUUGAAAC (pool 0.240): inoculated region 0.108; leaf margin 0.0141; systemic leaves 0.00537